# Experimental data: PubChem BioAssay AID720579 (National Center for Advancing Translational Sciences (NCATS), 2013)
# This is a selection; strong and weak results do not stand in their true shares. Inconclusive results are not listed. Calls of active or inactive are those of the source. The call rests on the fitted dose curve; tested in A549 cells.
# Experiment: qHTS for Stage-Specific Inhibitors of Vaccinia Orthopoxvirus: mCherry Reporter Primary qHTS; further: nearly all actives have a fitted effect of over 35% in size
# Settings: Vaccinia virus mCherry reporter infection, fluorescence
# Potency means the concentration at half of the fitted maximal effect.
row,Compound,Potency
1,CC(=O)OCC12CC(OC(=O)CC(C)C)C(C)=CC1OC1C(O)C(OC(C)=O)C2(C)C12CO2 (stereo unspecified),active: 5.62 µM
2,CC1=CC2OC3CC4OC(=O)/C=C/C=CC(C(C)O)OCC(O)C(C)CC(=O)OCC2(CC1O)C4(C)C31CO1 (stereo unspecified),active: 35.5 µM
3,CC(O)C1C=CC=CC(=O)OC2CC3OC4C5OC5(C)C(O)CC4(COC(=O)C(O)C(C)CCO1)C2(C)C31CO1 (stereo unspecified),active: 0.316 µM
4,C[C@H]1[C@@H](OS(=O)(=O)O)C[C@@H]2C[C@H]([C@@H](O)c3cc(=O)[nH]c(=O)[nH]3)NC3=NC[C@H]1N32,active: 1.58 µM
5,CC1=CC2OC3CC4OC(=O)C=CC=CC(C(C)O)OCC(O)C5(C)OC5C(=O)OCC2(CC1O)C4(C)C31CO1 (stereo unspecified),active: 4.47 µM
6,CC1=CC2OC3CC4OC(=O)C=CC=CC(=O)OCCC(C)C(O)C(=O)OCC2(CC1)C4(C)C31CO1 (stereo unspecified),active: 0.282 µM
